## Share of PSTVd stem 26 variants by leaf site

From the data files of Wu et al. 2024, doi:10.1371/journal.ppat.1012142.

PSTVd intermediate strain, stem 26: wild type AGGGUACCCU, pool pattern AGGGUNNCNN; upper and lower strand joined, each 5' to 3', the first 5 letters being the upper strand.

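A pool of all variants was put on leaves of three Nicotiana benthamiana plants. Progeny were sequenced from the inoculated region (day 5), the margin of the inoculated leaf (day 10) and systemic leaves (day 12).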

Values are reads per thousand in the sample; higher means more abundant, 0 means not found. Each site shows the three plants. "Pool" is the share in the plasmid pool used as inoculum, on the same scale. The inoculated region was read from the minus strand, the other sites from the plus strand.

sequence	pool	inoculated region	leaf margin	systemic leaves
ACGGUACCCA	0.0329	0.0236 / 0.0525 / 0.0860	0 / 0 / 0.0298	0 / 0 / 0
AGGGUAACAA	2.91	1.11 / 0.761 / 1.03	0.0223 / 0 / 0	0 / 0.0143 / 0
AGGGUACACU	1.25	1.96 / 1.94 / 2.67	2.74 / 3.29 / 3.99	0.187 / 0.157 / 2.20
AGGGUACCAG	2.78	0.827 / 0.683 / 0.946	0.0223 / 0 / 0.0595	0 / 0 / 0
AGGGUACCGC	3.50	2.36 / 1.84 / 1.68	0 / 0.0261 / 0	0.187 / 0 / 0
AGGGUACCUG	2.94	1.13 / 0.656 / 0.645	0 / 0 / 0	0 / 0 / 0
AGGGUAGCUA	2.55	0.803 / 0.919 / 0.473	0 / 0 / 0	0 / 0 / 0
AGGGUAUCAG	3.57	1.39 / 1.10 / 0.860	0 / 0 / 0	0 / 0 / 0
AGGGUAUCAU	4.29	2.24 / 1.34 / 1.85	0 / 0.0261 / 0	0 / 0 / 0
AGGGUAUCUA	2.58	1.82 / 2.52 / 1.72	1.16 / 0 / 0.952	0 / 0 / 0
AGGGUCACCA	4.72	1.89 / 2.07 / 1.76	0 / 0 / 0	0 / 0 / 0.0331
AGGGUCACGG	4.98	3.45 / 3.44 / 2.28	0 / 0.0261 / 0.0298	0 / 0.0143 / 0
AGGGUCCCAC	2.93	0.921 / 0.683 / 0.602	0 / 0 / 0	0 / 0 / 0
AGGGUCGCAA	2.99	0.945 / 0.656 / 0.430	0 / 0 / 0.0298	0 / 0 / 0
AGGGUCGCAC	2.70	0.921 / 0.814 / 0.430	0 / 0 / 0	0 / 0 / 0
AGGGUCGCGA	6.74	2.98 / 4.17 / 2.37	0.824 / 0.810 / 0.0893	0 / 0 / 0.0165
AGGGUCGCUC	3.22	1.82 / 2.07 / 2.19	1.02 / 0 / 0.744	0 / 0 / 0.0331
AGGGUCGGAC	2.25	1.61 / 1.76 / 0.688	1.09 / 1.65 / 0.446	0 / 0 / 0.0496
AGGGUCUCCG	5.64	2.39 / 2.36 / 2.11	0.0223 / 0 / 0.0298	0 / 0 / 0.0331
AGGGUGACAC	2.99	1.89 / 2.28 / 2.06	1.00 / 0 / 0.833	0 / 0 / 0
AGGGUGACAU	4.33	1.87 / 1.97 / 1.46	0 / 0 / 0	0 / 0 / 0
AGGGUGACGU	2.88	1.11 / 0.761 / 0.989	0 / 0 / 0.0298	0 / 0 / 0
AGGGUGACUA	3.50	2.53 / 3.07 / 2.45	0.979 / 0 / 0.952	0 / 0 / 0.0165
AGGGUGCCCA	2.98	0.851 / 0.788 / 0.946	0 / 0 / 0	0 / 0 / 0
AGGGUGCCGA	2.73	1.18 / 0.709 / 0.473	0.0223 / 0 / 0.0298	0 / 0 / 0
AGGGUGCCUC	4.42	3.31 / 4.17 / 2.28	1.22 / 2.01 / 1.01	0.0374 / 1.10 / 0
AGGGUGCUCG	0.0329	1.16 / 1.86 / 1.76	0.846 / 0 / 0	0 / 0 / 0
AGGGUGGCCC	2.78	1.91 / 2.13 / 1.94	1.07 / 0 / 0.893	0 / 0 / 0
AGGGUGGUCC	0.0493	1.28 / 1.63 / 1.59	1.34 / 2.22 / 0.595	0.0747 / 1.28 / 0.777
AGGGUGGUCG	0.0658	0.898 / 1.89 / 1.33	1.22 / 0 / 0.565	0 / 0 / 0
AGGGUGUCAA	2.57	2.20 / 2.63 / 2.28	1.20 / 0 / 1.01	0.0187 / 0 / 0
AGGGUGUCCC	5.63	4.23 / 4.80 / 3.31	1.29 / 2.46 / 1.37	0.355 / 1.38 / 2.02
AGGGUGUCGC	4.26	3.17 / 4.33 / 3.66	1.27 / 2.35 / 1.10	0.0747 / 0.884 / 0.975
AGGGUGUCUU	4.89	3.47 / 3.23 / 2.37	2.00 / 2.51 / 1.13	0.149 / 1.41 / 0
AGGGUGUGCA	0.0329	0.851 / 2.02 / 1.29	1.11 / 0 / 0	0 / 0 / 0
AGGGUUACCG	3.26	1.02 / 1.02 / 0.688	0 / 0 / 0	0 / 0 / 0
AGGGUUCCAA	3.60	1.75 / 1.68 / 1.12	0.0445 / 0 / 0.0298	0 / 0 / 0.0826
AGGGUUCCAC	3.17	1.68 / 1.55 / 1.42	0.0223 / 0 / 0	0 / 0 / 0
AGGGUUCCAG	4.23	2.13 / 1.89 / 1.12	0 / 0 / 0	0 / 0 / 0
AGGGUUCCGC	2.80	0.992 / 0.683 / 0.817	0 / 0 / 0	0 / 0 / 0
AGGGUUCCUG	3.09	1.28 / 1.05 / 0.860	0.779 / 0.287 / 0.0298	0 / 0 / 0
AGGGUUCCUU	3.62	2.06 / 1.76 / 1.20	0 / 0 / 0.0298	0 / 0.0143 / 0
AGGGUUGCUC	2.62	2.17 / 2.42 / 1.72	0.979 / 0 / 0.922	0 / 1.64 / 0
AGGGUUGGCC	0.0493	0 / 0 / 0	0 / 0 / 0	0 / 0 / 0
AGGGUUUCAC	4.67	4.09 / 4.80 / 3.05	1.51 / 0 / 1.04	0.0187 / 0.0143 / 0
AGGGUUUCCG	3.67	1.35 / 1.18 / 1.59	0.0223 / 0 / 0.0298	0 / 0 / 0
AGGGUUUCGG	4.28	1.68 / 2.05 / 1.68	0.0445 / 0 / 0.0298	0.0187 / 0 / 0
AGGGUUUCGU	4.95	3.10 / 2.31 / 1.94	0 / 0 / 0.0298	0 / 0 / 0
AGGGUUUCUG	5.59	4.04 / 4.52 / 2.97	2.20 / 1.07 / 1.04	0.0374 / 0.0143 / 0.926
AGGGUUUUCC	0.0493	1.09 / 1.55 / 1.51	0.846 / 1.93 / 0.803	0.0747 / 1.05 / 0

The first 2 entries again:

ACGGUACCCA (pool 0.0329) gave inoculated region 0.0236 / 0.0525 / 0.0860; leaf margin 0 / 0 / 0.0298; systemic leaves 0 / 0 / 0.
AGGGUAACAA (pool 2.91) gave inoculated region 1.11 / 0.761 / 1.03; leaf margin 0.0223 / 0 / 0; systemic leaves 0 / 0.0143 / 0.

Samples held 23,251 to 70,159 reads, so the smallest values rest on one or two reads. Sequences that differ at fixed positions probably stem from PCR or sequencing errors, and defective variants can be carried along by functional ones. Wild type was 44.9 per thousand in the pool and the most common sequence in every sample (inoculated region 297, 323, 447; leaf margin 793, 829, 846; systemic leaves 974, 853, 877).